Pooled drug test results. Numbers come from NIAID ChemDB, via PubChem.

Shared fields: whole-cell or culture tests; species: Herpes simplex virus 2; cell line: E6SM; measure: EC50

An empty or dashed field is not shown.

| SMILES | strain | read by | result |
|---|---|---|---|
| Nc1ncnc2c1ncn2C[C@@H](CF)OCP(=O)(O)O | G 196 LYONS | cytopathic effect | ≥656 µM |
| NC(=O)c1cncc([C@@H]2O[C@H](CO)[C@H](O)[C@@H]2O)c1 | G | cytopathic effect | ≥100 µg/mL |
| Cc1cn(C2CC(O[N+](=O)[O-])C(CO)O2)c(=O)[nH]c1=O | G | cytopathic effect | >400 µg/mL |
| Nc1nc(F)nc2c1ncn2[C@@H]1C=C(CO)[C@@H](O)[C@H]1O | G | cytopathic effect | ≥40 µg/mL |
| COC(=O)C(C)(C)NP(=O)(OC[C@H]1O[C@@H](n2cc(/C=C/Br)c(=O)[nH]c2=O)C[C@@H]1O)Oc1ccccc1 | G | cytopathic effect | >240 µM |
| CC1(C)[C@@H](CO)CC[C@@]1(C)Cn1nnc2c(N)ncnc21 | G | cytopathic effect | >400 µg/mL |
| COC(=O)[C@]1(C)CCC[C@]2(C)c3ccc4[nH]c(C(F)(F)F)nc4c3CCC12 | - | plaque count | >4 µg/mL |
| O=c1c2ncn(COC(CO)CO)c2nc2[nH]c(-c3ccccc3)cn12 | 196 | cytopathic effect | 0.02 µg/mL |
| Cc1cc([C@H]2C[C@H](O)[C@@H](CO)O2)c(F)cc1F | G | cytopathic effect | >400 µg/mL |
| NC(=O)c1cncc([C@@H]2O[C@H](CO)[C@@H](O)[C@@H]2O)c1 | G | cytopathic effect | ≥100 µg/mL |
| O=c1[nH]c(=O)n([C@@H]2C[C@H](CO)C[C@H]2CO)cc1I | G | - | >100 µg/mL |
| COC(=O)[C@H](C)NP(=O)(OC[C@H]1O[C@@H](n2cc(/C=C/Br)c(=O)[nH]c2=O)C[C@@H]1O)Oc1ccc(Cl)cc1 | G | cytopathic effect | >16 µM |
| Cc1ccn2c(C3SCCS3)cnc2c1 | G | - | >1000 µM |
| CC1(C)[C@@H](CO)CC[C@@]1(C)Cn1cnc2c(N)ncnc21 | G | cytopathic effect | >400 µg/mL |
| CC1(C)[C@@H](CCO)C[C@H]1n1nnc2c(=O)[nH]cnc21 | G | cytopathic effect | 70 µg/mL |
| Nc1cc([C@H]2C[C@H](O)[C@@H](CO)O2)c(F)cc1F | LYONS | cytopathic effect | >400 µg/mL |
| O=c1ccn([C@@H]2C[C@H](CO)C[C@H]2CO)c(=O)[nH]1 | G | - | >100 µg/mL |
| Cc1cc([C@@H]2C[C@H](O)[C@@H](CO)O2)c(Cl)cc1F | LYONS | cytopathic effect | >400 µg/mL |
| CC1(C)[C@@H](CO)CC[C@@]1(C)Cn1nnc2c(Cl)ncnc21 | G | cytopathic effect | >400 µg/mL |
| N#CC1=CN(COCCO)S(=O)(=O)N=C1N | LYONS | - | >400 µg/mL |
| Cc1ccn2c(C(SCCc3ccccc3)SCCc3ccccc3)cnc2c1 | G | - | >1000 µM |
| Cc1nc2ccc(Br)cc2c(=O)n1-c1nnc(-c2cccc(Cl)c2Cl)c(N)n1 | G | cytopathic effect | >3.2 µg/mL |
| Nc1nc2c(ncn2[C@H]2OC[C@@H](CO)C2O)c(=O)[nH]1 | G | cytopathic effect | 9.6 µg/mL |
| CC1(C)[C@@H](CCO)C[C@H]1n1cnc2c(N)ncnc21 | G | cytopathic effect | 100 µg/mL |
| OC[C@H]1CC(n2cnc3c(NC4CC4)ncnc32)C[C@@H]1CO | G | - | >100 µg/mL |
| Nc1ncnc2c1ncn2C[C@H](CO)OCP(=O)(O)O | G 196 LYONS | cytopathic effect | 81 µM |
| COc1cc2c(cc1OC)[C@@H]1C(N)CSCON1CC2 | G | cytopathic effect | 0.1 µg/mL |
| CCc1nc(-n2c(C)nc3ccc(Br)cc3c2=O)nc(N)c1-c1ccc(Cl)cc1 | G | cytopathic effect | >16 µg/mL |
| Nc1ncnc2c1ncn2C[C@@H](CO)OCP(=O)(O)O | G 196 LYONS | cytopathic effect | 1.5 µM |
| Nc1nc2c(ncn2[C@H]2C=C[C@@H](CO)[C@H](O)C2)c(=O)[nH]1 | LYONS | cytopathic effect | 0.07 µg/mL |
| Cc1cc([C@H]2C[C@H](O)[C@@H](CO)O2)c(Cl)cc1F | G | cytopathic effect | >400 µg/mL |
| CO[C@H](CO)[C@@H](O)CCn1ccc(N)nc1=O | G | cytopathic effect | >400 µg/mL |
| OCCCCn1cc(Cn2ncc3c(SCc4ccccc4)ncnc32)nn1 | G | - | >400 µg/mL |
| Cc1cc([C@H]2C[C@H](O)[C@@H](CO)O2)c(F)cc1Cl | LYONS | cytopathic effect | >400 µg/mL |
| Nc1ncnc2c1ccn2[C@@H]1C[C@H](O)[C@@H](O)[C@H]1O | TYPE G | cytopathic effect | >400 µg/mL |
| NC(=O)c1cncc([C@H]2O[C@H](CO)[C@H](O)[C@@H]2O)c1 | G | cytopathic effect | ≥100 µg/mL |
| O=C(C1CCCCC1)N(O)c1ccc(Cl)cc1 | G | cytopathic effect | >80 µg/mL |
| CC(C)CS[C@@H]1C[C@H](n2cnc3c(N)ncnc32)[C@@H](O)[C@H]1O | G | cytopathic effect | >80 µg/mL |
| CNc1ncnc2c1cnn2Cc1cn(CCCCO)nn1 | G | - | >400 µg/mL |
| Nc1nc2c(ncn2[C@@H]2C=C[C@H](CO)[C@@H](O)C2)c(=O)[nH]1 | LYONS | cytopathic effect | 0.07 µg/mL |
| Nc1nc2c(ncn2C[C@H](CF)OCP(=O)(O)O)c(=O)[nH]1 | G 196 LYONS | cytopathic effect | 165 µM |
| CC(=O)OC[C@H]1O[C@@H](c2ccccc2)C[C@@H]1OC(C)=O | G | cytopathic effect | >400 µg/mL |
| Cc1cc([C@@H]2C[C@H](O)[C@@H](CO)O2)c(F)cc1F | 196 | cytopathic effect | >400 µg/mL |
| COC(=O)[C@]1(C)CCC[C@]2(C)c3cc4cc[nH]c4cc3CCC12 | - | plaque count | >4 µg/mL |
| Nc1nc(N)c2ncn(C[C@H](CF)OCP(=O)(O)O)c2n1 | G 196 LYONS | cytopathic effect | >600 µM |
| Cc1cn([C@@H]2CO[C@H](CO)[C@@H](O)C2)c(=O)[nH]c1=O | G | cytopathic effect | >20 µg/mL |
| C#C[C@@H](O)C1=C[C@@H](n2cnc3c(N)ncnc32)[C@H](O)[C@@H]1O | G | cytopathic effect | >400 µg/mL |
| COC(=O)[C@]1(C)CCC[C@]2(C)c3cc(Br)c4nc[nH]c4c3CCC12 | - | plaque count | >4 µg/mL |
| Nc1ncnc2c1cnn2Cc1cn(CCCCO)nn1 | G | - | >400 µg/mL |
| Cc1cn([C@H]2CO[C@H](CO)[C@@H](O)C2)c(=O)[nH]c1=O | G | cytopathic effect | >20 µg/mL |
| Cc1cccn2c(C3OCCS3)cnc12 | G | - | >1000 µM |
| CC(=O)OCCOCN1C=CC(=O)NS1(=O)=O | G | - | >400 µg/mL |
| CC1(C)[C@@H](CCO)C[C@H]1n1nnc2c(=O)[nH]c(N)nc21 | G | cytopathic effect | 300 µg/mL |
| Nc1ccn([C@@H]2OC[C@H](CO)[C@H]2O)c(=O)n1 | G | cytopathic effect | >400 µg/mL |
| CCc1nc(-n2c(-c3ccccc3)nc3ccc(Br)cc3c2=O)nc(N)c1-c1ccc(Cl)cc1 | G | cytopathic effect | >16 µg/mL |
| CO[C@H](CO)[C@@H](O)CCn1cnc2c(=O)[nH]c(N)nc21 | G | cytopathic effect | >400 µg/mL |
| CC(=O)OCCOCN1C=CC(=O)N(COCCO)S1(=O)=O | LYONS | - | >400 µg/mL |
| Nc1ncnc2c1ncn2[C@@H]1C=C(CO)[C@@H](O)[C@H]1O | G | cytopathic effect | ≥40 µg/mL |
| OC[C@H]1O[C@H](c2cc(I)c(F)cc2F)C[C@@H]1O | G | cytopathic effect | >400 µg/mL |
| OC[C@H]1O[C@@H](c2cncc(Br)c2)[C@@H](O)[C@@H]1O | G | cytopathic effect | ≥100 µg/mL |
| Nc1ccn([C@H]2CO[C@H](CO)[C@@H](O)C2)c(=O)n1 | G | cytopathic effect | 20 µg/mL |
| Nc1nc2c(ncn2C[C@H](CO)OCP(=O)(O)O)c(=O)[nH]1 | G 196 LYONS | cytopathic effect | 1.4 µM |
| Nc1ccn(CC[C@H](O)CCO)c(=O)n1 | LYONS | cytopathic effect | >400 µg/mL |
| OC[C@H]1O[C@@H](c2ccccc2)C[C@@H]1O | G | cytopathic effect | >400 µg/mL |
| O=C(C1CC1)N(O)c1ccc(Cl)cc1 | G | cytopathic effect | >80 µg/mL |
| Cc1cn([C@@H]2OC[C@H](CO)[C@H]2N=[N+]=[N-])c(=O)[nH]c1=O | G | cytopathic effect | >80 µg/mL |
| NC(=S)c1cncc([C@@H]2O[C@H](CO)[C@@H](O)[C@@H]2O)c1 | G | cytopathic effect | ≥100 µg/mL |

For reference, 4 entries again:

{"SMILES": "Cc1nc2ccc(Br)cc2c(=O)n1-c1nnc(-c2cccc(Cl)c2Cl)c(N)n1", "strain": "G", "read by": "cytopathic effect", "result": ">3.2 µg/mL"}
{"SMILES": "Nc1nc(N)c2ncn(C[C@H](CF)OCP(=O)(O)O)c2n1", "strain": "G 196 LYONS", "read by": "cytopathic effect", "result": ">600 µM"}
{"SMILES": "Cc1cc([C@H]2C[C@H](O)[C@@H](CO)O2)c(F)cc1Cl", "strain": "LYONS", "read by": "cytopathic effect", "result": ">400 µg/mL"}
{"SMILES": "NC(=S)c1cncc([C@@H]2O[C@H](CO)[C@@H](O)[C@@H]2O)c1", "strain": "G", "read by": "cytopathic effect", "result": "≥100 µg/mL"}

ECn is the concentration giving n% inhibition of infection, replication or growth. Conditions beyond the fields shown may differ between rows.